The assay deals with I166A_I180A CYP121A1 heme thiolate-CO complex. Nature of the assay: Time-course CO binding assay (P450 to P420 conversion), monomeric double mutant. The following applies: monomeric CYP121A1, saturating ligand concentration.

Turning to imidazole, the “stabilization of the CO-bound 450 nm species” value is given as “minimal stabilization of the 450 nm species”.

Values taken from PMC7801616, “Surface hydrophobics mediate functional dimerization of CYP121A1 of Mycobacterium tuberculosis” (Scientific Reports, 2021).
